The record followed here is patent US11766420B2 (priority 2015, dated 2023).

The test system of test [1] is Aβarc-expressing third instar larvae. The settings on record: dissected Aβarc-expressing third instar larvae, 8 h.
Test [2] concerns APP/PS1 mice. The test can be described thus: Morris Water Maze in APP/PS1 mice gavaged with PAO. The conditions noted are these: 4 month-age APP/PS1 mice, gavage 0.1, 0.3, 1.0 mg/kg, 6 weeks; most notably at 0.3 mg/kg.
Test [3] has as its system HEK293T cells stably transfected with human APP. The test can be described thus: Aβ42 secretion detected in HEK293T-APP cells (ELISA of culture medium). Format: cell-based. (In general: In an ELISA, binding on a coated surface is turned into a signal by an enzyme label.)
The test system of the next test is APP. The settings on record: HEK293T-APP cells, different concentrations.
Test [4] has as its system APP/PS1 mice. Put plainly: ELISA of Aβ42 in CSF and fractionated brain membrane of APP/PS1 mice. The settings on record: TBS with 1% Triton or 1% SDS extracts; most notably at 0.3 mg/kg.
The test system of another test is Aβarc flies. Put plainly: ELISA quantification of Aβ42 in Aβarc flies. The settings on record: Aβarc flies after treatment.

On to `O=[As]c1ccccc1` (centres unmarked), for which, in test [1], the “Aβ42 secretion into medium” value was “facilitates Aβ42 secretion and exhibits a tendency of drug dose dependency”. In addition, the “Impairment of spatial learning and memory abilities (water maze)” value with APP/PS1 mice [2] is “significantly reduced”. Besides, the “Aβ42 concentration in culture medium in the presence of DAPT” value in test [3] (DAPT (1 μM), γ secretase inhibitor) is listed as “increases Aβ42 concentration in culture medium under the presence of DAPT”. For the same compound, in test [3] (FIG. 16), the “Low concentration at which the effect on Aβ42 secretion is still stable” value is 1.0 nM. Moreover, the “Aβ42 concentration in culture medium” value in test [3] (treatment in culture medium) was “increasing Aβ42 concentration in culture medium”. The APP level entry with APP is “without affecting the activities of α, β, and γ secretase which cleaves APP (FIG. 14 panel a) or causing an increase of APP level”. In the test on APP/PS1 mice [4], the “Aβ42 level in brain membrane” value was “unexpectedly increased the Aβ42 level in brain membrane”. Moreover, the “Amount of Aβ42 (ELISA)” value in the test on Aβarc flies is “significantly decreased”.
